Our source for the isolated mass values is US20060275321A1 (Phoenix Pharmaceuticals, Inc., priority 2005, published 2006).

The series can be described thus: general procedure: peptide synthesis; BOC-Glu(OcHex)-resin. The conditions noted are these: whole synthesis.

Turning to HIV-1 30-86 Cys-Acm 30-34, the isolated mass entry is on record as “about 16 milligrams”.
